This is an account of results in article PMC3842668, “Dual-acting stapled peptides target both HIV-1 entry and assembly” (Retrovirology, 2013).

Where a SMILES comes first, the peptide text is derived from it. Bridges are numbered along the chain shown (N, C = ends). [ ]: non-standard residue; d: D form. R8 = C=CCCCCCC[C@@](C)(N)C(=O)O; S5 = C=CCCC[C@](C)(N)C(=O)O

The target of one experiment is T1, CA CTD (W184A/M185A) (Human immunodeficiency virus type 1 group M subtype B, UniProt P12493, M317A/W316A).
T1 construct: The C-CA (CTD) DNA fragment was subcloned into the pET14b vector; made in house
Format: binding, HIV-1. Particulars: ITC.

Experiment [1] has as its target monomeric HIV-1 CA, p24-W184A/M185A (Human immunodeficiency virus type 1 group M subtype B, UniProt P12493, M317A/W316A). Particulars: 35°C, 50 mM NaOAc pH 5.5, 5 mM DTT, 10% D2O.

On to `CC[C@H](C)[C@H](NC(C)=O)C(=O)N[C@@H](CO)C(=O)N[C@@H](Cc1ccccc1)C(=O)N[C@]1(C)CCCCCCC=CCCC[C@@](C)(C(=O)N[C@@H](CCC(=O)O)C(=O)N[C@@H](CO)C(=O)NCC(=O)N[C@@H](CO)C(N)=O)NC(=O)[C@H](Cc2ccc(O)cc2)NC(=O)[C@H](Cc2ccc(O)cc2)NC(=O)[C@H](CC(=O)O)NC(=O)[C@H](CC(C)C)NC(=O)[C@H](CC(C)C)NC(=O)[C@H](CCC(=O)O)NC1=O` [NYAD-36] (Ac-ISF[R8]ELLDYY[S5]ESGS-NH2; staple 4-11), for which the “fold lower affinity towards the CA CTD compared to NYAD-1, -66 and -67” value on CA CTD (W184A/M185A) is 3-5 fold. Also, the “NMR spectral changes upon titration (in words)” value in experiment [1] is given as “significant NMR spectral changes consistent with tight binding”.
On to `CC[C@H](C)[C@H](NC(C)=O)C(=O)N[C@@H](CO)C(=O)N[C@@H](Cc1ccccc1)C(=O)N[C@]1(C)CCCCCCC=CCCC[C@@](C)(C(=O)N[C@@H](CCC(=O)O)C(=O)N[C@@H](CC(=O)O)C(N)=O)NC(=O)[C@H](Cc2ccc(O)cc2)NC(=O)[C@H](Cc2ccc(O)cc2)NC(=O)[C@H](CC(=O)O)NC(=O)[C@H](CC(C)C)NC(=O)[C@H](CC(C)C)NC(=O)[C@H](CCC(=O)O)NC1=O` [NYAD-66] (Ac-ISF[R8]ELLDYY[S5]ED-NH2; staple 4-11), for which, in experiment [1], the “NMR spectral changes upon titration (in words)” value is reported as “significant NMR spectral changes consistent with tight binding”.
As to `CC[C@H](C)[C@H](NC(C)=O)C(=O)N[C@@H](CO)C(=O)N[C@@H](Cc1ccccc1)C(=O)N[C@]1(C)CCCCCCC=CCCC[C@@](C)(C(=O)N[C@@H](CCC(=O)O)C(=O)N[C@@H](CC(=O)O)C(=O)N[C@@H](CCC(=O)O)C(N)=O)NC(=O)[C@H](Cc2ccc(O)cc2)NC(=O)[C@H](C)NC(=O)[C@H](CCC(N)=O)NC(=O)[C@H](CC(C)C)NC(=O)[C@H](Cc2c[nH]c3ccccc23)NC(=O)[C@H](CCC(=O)O)NC1=O` [NYAD-67] (Ac-ISF[R8]EWLQAY[S5]EDE-NH2; staple 4-11), the “NMR spectral changes upon titration (in words)” value in experiment [1] is “significant NMR spectral changes consistent with tight binding”.
